Reference: patent publication US10513539B2, “Hydrophobic modified peptides and their use for liver specific targeting” (Ruprecht-Karls-Universitat Heidelberg, priority 2011, dated 2019)
Where two headings read alike, the source gives them in different places.

Conditions: for radiation in the intestines and the bladder (PET summary image): 6 h post injection (FIG. 8D)
[1] = 40-60 minutes post injection (FIG. 8C)

Myristoyl-[K-Levofloxacin]-NLSTSNPLGFFPDHQLDPy (SEQ ID NO:21)-^131I [HBVpreS/myr-[K-Levofloxacin]3-20y-^131I]
radiation found in the liver (PET summary image) (0-20 minutes post injection (FIG. 8A)): ~100%
radiation found in the liver (PET summary image) (20-40 minutes post injection (FIG. 8B)): ~100%
enrichment in the intestine and bladder (PET summary image) [1]: mild enrichment
radiation found in the liver (PET summary image) [1]: Most of the radiation is found in the liver
radiation in the intestines and the bladder (PET summary image): clear accumulation
radiation in the intestines and the bladder (PET summary image) (listed as HBVpreS/myr-[K-Levofloxacin]3-20y-131I): traces of radioactivity
liver specificity (overall conclusion of the PET experiments) (WAG/RJ rats): enrich specifically in the liver
radiation found in the liver (PET summary image) (measured for 10 minutes 6 h post injection (FIG. 8D)): Most of the radiation is still found in the liver
